{"source": "PubChem BioAssay AID504761 | Drosophila RNAi Screening Center – 2011", "purpose": "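Insect host genes that dengue virus relies on to spread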 (primary screen)", "cells": "D.Mel-2 cells from Drosophila", "knock-down reagent": "long dsRNA against Drosophila genes", "challenge": "infection with dengue virus type 2; dose and infection time not stated", "measurement": "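Per well on two replicate plates, imaging gave the percent of cells positive for viral envelope protein, ranked by infection, and a nuclear count of cells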", "reading the numbers": "infection score: higher = more virus-infected cells", "hit rule": "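Low infection ranks in the two replicates (chance level up to 0.065) followed by a retest with a 1.5-fold or larger significant decrease, p below 0.05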", "meaning of the calls": "active = confirmed: knock-down lowers infection; inactive = not picked or not confirmed", "note": "The deposit covers about 22,000 reagents; below is a random part of those that have a named target and a result. Over the whole deposit, 116 (0.52%) were called active. 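Calls depend on retest data that are not deposited; infection was ranked per plate without normalising between plates; the unit of the infection score is not given.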 A plus sign joins genes that one reagent is predicted to hit. Further read-outs or replicates are left out here. No sequences are given here. Not stated in the record: the amount of reagent, the time to read-out."}
The first 2 entries, ahead of the listing:
{"predicted target":"CG3764","amplicon":"DRSC10375","infection score, replicate 1":15.7,"activity call":"inactive"}
{"predicted target":"CG12986","amplicon":"DRSC19506","infection score, replicate 1":2.25,"activity call":"inactive"}

Main list, repeating the preview:
{"predicted target":"CG3764","amplicon":"DRSC10375","infection score, replicate 1":15.7,"activity call":"inactive"}
{"predicted target":"CG12986","amplicon":"DRSC19506","infection score, replicate 1":2.25,"activity call":"inactive"}
{"predicted target":"CheB93b","amplicon":"DRSC21762","infection score, replicate 1":6.19,"activity call":"inactive"}
{"predicted target":"mRpL40","amplicon":"DRSC15749","infection score, replicate 1":16.3,"activity call":"inactive"}
{"predicted target":"mRpL40","amplicon":"DRSC27264","infection score, replicate 1":7.13,"activity call":"inactive"}
{"predicted target":"Pkn + Tsen15","amplicon":"DRSC21969","infection score, replicate 1":3.98,"activity call":"inactive"}
{"predicted target":"Pkn + Tsen15","amplicon":"DRSC27376","infection score, replicate 1":25.6,"activity call":"inactive"}
{"predicted target":"CG12158","amplicon":"DRSC22933","infection score, replicate 1":0.82,"activity call":"inactive"}
{"predicted target":"CG4294","amplicon":"DRSC04460","infection score, replicate 1":25.9,"activity call":"inactive"}
{"predicted target":"p-cup","amplicon":"DRSC19513","infection score, replicate 1":4.99,"activity call":"inactive"}
{"predicted target":"Trs33","amplicon":"DRSC15990","infection score, replicate 1":1.1,"activity call":"inactive"}
{"predicted target":"CG13659","amplicon":"DRSC14660","infection score, replicate 1":3.26,"activity call":"inactive"}
{"predicted target":"CG13659","amplicon":"DRSC29383","infection score, replicate 1":9.06,"activity call":"inactive"}
{"predicted target":"Gadd45","amplicon":"DRSC06033","infection score, replicate 1":3.04,"activity call":"inactive"}
